The values that follow come from US20190359662A1.

Targets include hNav1.1 (human), P35498; hNav1.2 (human), Q99250; hNav1.3 (human), Q9NY46; hNav1.4 (human), P35499; hNav1.5 (human), Q14524; hNav1.6 (human), Q9UQD0; hNav1.8 (human), Q9Y5Y9; hNav1.9 (human), Q9UI33; hNav1.7 (human), Q15858.
What all share (assay): cell-based or functional assay

For DCRYMFGDCEKDEDCCKHLGCKRKMKYCAWDFTFT (modifications not checked) [Pnc1a], the Selectivity for Nav1.7, membrane potential assay in the assay with hNav1.1 (human), P35498 was above 50 fold; in the assay with hNav1.2 (human), Q99250 it was above 10 fold; in the assay with hNav1.3 (human), Q9NY46, above 10 fold; with hNav1.4 (human), P35499 it was above 50 fold; with hNav1.5 (human), Q14524 it was above 100 fold; with hNav1.6 (human), Q9UQD0 it was above 50 fold. This molecule also came in with a Selectivity for Nav1.7, membrane potential assay in the assay with hNav1.8 (human), Q9Y5Y9 above 100 fold. The selectivity for Nav1.7, automated patch clamp was above 30 fold in the assay with hNav1.1 (human), P35498; above 100 fold with hNav1.2 (human), Q99250; above 100 fold in the assay with hNav1.3 (human), Q9NY46; above 100 fold with hNav1.4 (human), P35499; above 1000 fold in the assay with hNav1.5 (human), Q14524; above 100 fold in the assay with hNav1.6 (human), Q9UQD0. Besides, the selectivity for Nav1.7, automated patch clamp was above 1000 fold with hNav1.8 (human), Q9Y5Y9 and above 1000 fold with hNav1.9 (human), Q9UI33.

In the case of DCRYMFGDCEKDKDCCKHLGCKRKMKYCAWDFTFT (modifications not checked) [[E13K]Pnc1a], the IC50, membrane potential assay with hNav1.1 (human), P35498 was 0.83 µM; in the assay with hNav1.2 (human), Q99250, 0.378 µM; with hNav1.3 (human), Q9NY46, 6 µM; with hNav1.4 (human), P35499 it was 2 µM; with hNav1.5 (human), Q14524 it was above 30 µM; in the assay with hNav1.6 (human), Q9UQD0, 1 µM. The IC50, membrane potential assay with hNav1.8 (human), Q9Y5Y9 was above 30 µM. The Selectivity for Nav1.7, membrane potential assay in the assay with hNav1.1 (human), P35498 is 9 fold; with hNav1.2 (human), Q99250, 4 fold; with hNav1.3 (human), Q9NY46 it was 66 fold; with hNav1.4 (human), P35499 it was 27 fold; with hNav1.5 (human), Q14524, above 300 fold; with hNav1.6 (human), Q9UQD0, 14 fold. For the same molecule, the Selectivity for Nav1.7, membrane potential assay with hNav1.7 (human), Q15858 was 1 fold; with hNav1.8 (human), Q9Y5Y9 it was above 300 fold.

As to SDCRYMFGDCEKDEDCCKHLGCKRKMKYCAWDFTFT (modifications not checked) [S0-Pnc1a], the IC50, membrane potential assay with hNav1.1 (human), P35498 is 9 µM; with hNav1.2 (human), Q99250, 3 µM; in the assay with hNav1.3 (human), Q9NY46 it was 6 µM; with hNav1.4 (human), P35499, 11 µM; with hNav1.5 (human), Q14524, above 30 µM; with hNav1.6 (human), Q9UQD0 it was 19 µM. The IC50, membrane potential assay with hNav1.7 (human), Q15858 is 0.282 µM; with hNav1.8 (human), Q9Y5Y9 it was above 30 µM. In addition, the Selectivity for Nav1.7, membrane potential assay with hNav1.1 (human), P35498 was 32 fold; in the assay with hNav1.2 (human), Q99250, 10 fold; in the assay with hNav1.3 (human), Q9NY46, 22 fold; with hNav1.4 (human), P35499, 40 fold; with hNav1.5 (human), Q14524, above 107 fold; with hNav1.6 (human), Q9UQD0, 68 fold. Moreover, the Selectivity for Nav1.7, membrane potential assay with hNav1.7 (human), Q15858 is 1 fold; in the assay with hNav1.8 (human), Q9Y5Y9, above 107 fold.
